Values from PubChem BioAssay AID624099 (ICCB-Longwood, 2012).
In all, the deposit lists about 21,000 reagents; below is a part drawn at random. Over the whole deposit, 497 (2.4%) were called active. 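Higher z means weaker E2 silencing; only reporter increases were scored, and knock-downs that hurt cell survival may mask genuine repressor factors.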

- Test: 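Human genes that papillomavirus E2 requires to repress the HPV18 LCR promoter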 (primary screen)
- System: human C33A cervical carcinoma cells (HPV-negative) stably expressing BPV1 E2 and an HPV18 LCR luciferase reporter
- Reagents: siRNA pool against human genes, 40 nM
- Time to read-out: 72 h
- Detection: 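HPV18 LCR reporter light per well, converted to plate-wise z-scores that exclude control wells, and averaged over triplicate plates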
- Direction: mean z-score and z-score: higher = stronger reporter signal, weaker E2 silencing
- Rule for the call: 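Hit if mean z-score reaches 2 and two or more of three replicate z-scores also reach 2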

no.	target gene	PubChem SID	mean z-score	z-score, replicate A	z-score, replicate B	z-score, replicate C	activity call
1	LINC03122 (long independently transcribed non-coding RNA 3122)	SID134321993	0.39	0.43	0.25	0.49	inactive
2	MBTD1 (mbt domain containing 1)	SID134324281	0.75	1.04	0.46	0.74	inactive
3	CTIF (cap binding complex dependent translation initiation factor)	SID134324639	-0.21	0.01	-0.06	-0.56	inactive
4	FCER1A (Fc epsilon receptor Ia)	SID134315982	0.55	0.52	0.32	0.81	inactive
5	ZNF607 (zinc finger protein 607)	SID134321104	0.88	1.03	0.61	1	inactive
6	PGC (progastricsin)	SID134311417	-0.94	-1.08	-1.04	-0.71	inactive
7	LOC391711 (tripartite motif-containing protein 60-like)	SID134327439	0.56	0.89	-0.34	1.12	inactive
8	RCBTB1 (RCC1 and BTB domain containing protein 1)	SID134321059	1.24	1.3	1.58	0.84	inactive
9	OGFOD2	SID134310358	0.9	0.84	0.83	1.03	inactive
10	ZNF813 (zinc finger protein 813)	SID134325850	-0.43	-0.64	-0.51	-0.14	inactive
11	KIF9 (kinesin family member 9)	SID134310692	0.39	0.58	0.08	0.51	inactive
12	LOC387894 (retired record)	SID134328393	0.13	0.01	0.43	-0.05	inactive
13	SMS (spermine synthase)	SID134321217	0.27	0.09	0.05	0.65	inactive
14	OTUD6B (OTU deubiquitinase 6B)	SID134313420	-0.42	-0.1	-0.3	-0.87	inactive
15	ARHGEF25 (Rho guanine nucleotide exchange factor 25)	SID134310277	1.44	1.24	1.37	1.72	inactive
16	FNDC1 (fibronectin type III domain containing 1)	SID134326206	0.73	0.45	0.9	0.84	inactive
17	ST3GAL2 (ST3 beta-galactoside alpha-2,3-sialyltransferase 2)	SID134316628	-0.31	-0.32	-0.34	-0.26	inactive
18	CCDC38 (coiled-coil domain containing 38)	SID134322491	0.98	0.6	0.88	1.45	inactive
19	MTHFD1	SID134314308	0.38	0.42	0.29	0.45	inactive
20	SUPT16H (SPT16 homolog, facilitates chromatin remodeling subunit)	SID134314249	-0.05	-0.18	0.12	-0.1	inactive
21	MOV10 (Mov10 RNA helicase)	SID134318338	-0.22	-0.15	-0.46	-0.05	inactive
22	ZNF702P (zinc finger protein 702, pseudogene)	SID134318658	1.3	1.15	1.65	1.09	inactive
23	NUP133 (nucleoporin 133)	SID134317551	0.94	1.06	0.71	1.06	inactive
24	RBM18 (RNA binding motif protein 18)	SID134319134	0.17	-0.18	-0.02	0.71	inactive
25	RAB34 (RAB34, member RAS oncogene family)	SID134314453	-0.19	-0.53	-0.04	-0.01	inactive
26	LOC401579 (retired record)	SID134329166	0.99	0.91	0.92	1.14	inactive
27	C8orf44 (chromosome 8 putative open reading frame 44)	SID134324671	-1.1	-0.91	-1.14	-1.26	inactive
28	LOC389786 (retired record)	SID134328125	-1.17	-1.39	-0.79	-1.32	inactive
29	TIMM44 (translocase of inner mitochondrial membrane 44)	SID134310115	-0.65	-0.42	-0.87	-0.66	inactive
30	CNTD1 (cyclin N-terminal domain containing 1)	SID134322265	-1.49	-1.82	-1.1	-1.55	inactive
31	LOC148766 (retired record)	SID134325291	0.66	0.6	0.77	0.6	inactive
32	LOC399986 (retired record)	SID134328402	-0.88	-0.6	-0.91	-1.14	inactive

Single entries from the list:
Entry of OTUD6B (OTU deubiquitinase 6B) [SID134313420] under “mean z-score”: -0.42
Under “z-score, replicate A”, KIF9 (kinesin family member 9) [SID134310692] reads 0.58
Entry for SUPT16H (SPT16 homolog, facilitates chromatin remodeling subunit) [SID134314249] in “z-score, replicate C”: -0.1
For “z-score, replicate B”, LOC389786 (retired record) [SID134328125] reads -0.79
Under “z-score, replicate C”, FNDC1 (fibronectin type III domain containing 1) [SID134326206] is entered as 0.84
For “mean z-score”, ARHGEF25 (Rho guanine nucleotide exchange factor 25) [SID134310277] shows 1.44

More results follow:
no.	target gene	PubChem SID	mean z-score	z-score, replicate A	z-score, replicate B	z-score, replicate C	activity call
33	OPLAH (5-oxoprolinase, ATP-hydrolysing)	SID134326385	0.68	0.33	0.75	0.95	inactive
34	FAM184A (family with sequence similarity 184 member A)	SID134319806	0.32	0.6	0.42	-0.07	inactive
35	ADGRG1 (adhesion G protein-coupled receptor G1)	SID134310516	0.33	0.53	0.06	0.38	inactive
36	CHST9 (carbohydrate sulfotransferase 9)	SID134313399	-0.4	-0.37	-0.21	-0.61	inactive
37	ZNF90 (zinc finger protein 90)	SID134325920	1.41	1.35	1.35	1.53	inactive
38	LINC01085 (long independently transcribed non-coding RNA 1085)	SID134327474	-0.67	-0.89	-0.52	-0.6	inactive
39	ICAM5 (intercellular adhesion molecule 5)	SID134317275	0.21	0.33	0.01	0.29	inactive
40	ZNF439 (zinc finger protein 439)	SID134319544	0.32	0.75	0.15	0.06	inactive
41	LINC01139 (long independently transcribed non-coding RNA 1139)	SID134327074	-0.39	-0.36	-0.43	-0.37	inactive
42	LYPD3 (LY6/PLAUR domain containing 3)	SID134314716	0.52	0.37	0.59	0.61	inactive
43	OAT (ornithine aminotransferase)	SID134315456	-1.35	-1.24	-1.31	-1.49	inactive
44	FBXL21P (F-box and leucine rich repeat protein 21, pseudogene)	SID134316695	1.06	1.15	1.1	0.94	inactive
45	NGDN (neuroguidin)	SID134325210	-1.54	-1.64	-1.61	-1.37	inactive
46	LOC729902 (retired record)	SID134327431	0.33	0.13	0.56	0.29	inactive
47	TXLNA (taxilin alpha)	SID134321858	-0.32	-0.21	-0.28	-0.46	inactive
48	CNIH4 (cornichon family member 4)	SID134324367	-0.68	-0.75	-0.51	-0.78	inactive
49	GUCY1A2 (guanylate cyclase 1 soluble subunit alpha 2)	SID134311965	1.85	1.34	1.89	2.31	inactive
50	TEPSIN (TEPSIN adaptor related protein complex 4 accessory protein)	SID134319842	0.87	0.71	0.6	1.3	inactive
51	SULT1A2 (sulfotransferase family 1A member 2)	SID134313949	-0.82	-0.81	-0.8	-0.85	inactive
52	TUG1 (taurine up-regulated 1)	SID134322080	0.58	0.4	0.67	0.67	inactive
53	KCTD9 (potassium channel tetramerization domain containing 9)	SID134324271	0.23	0.01	0.23	0.45	inactive
54	LINC01749 (long independently transcribed non-coding RNA 1749)	SID134318113	-0.66	-0.63	-0.6	-0.73	inactive
55	RPS12P3 (ribosomal protein S12 pseudogene 3)	SID134325505	-1.13	-1.26	-0.94	-1.18	inactive
56	CNTF (ciliary neurotrophic factor)	SID134315483	0.4	0.61	0.34	0.24	inactive
57	RNF38 (ring finger protein 38)	SID134312265	-0.17	-0.24	-0.29	0.01	inactive
58	KCTD15 (potassium channel tetramerization domain containing 15)	SID134318458	0.11	0.04	0.44	-0.15	inactive
59	ACSS1 (acyl-CoA synthetase short chain family member 1)	SID134313416	1.15	1	1.34	1.11	inactive
60	DLST (dihydrolipoamide S-succinyltransferase)	SID134314632	0.78	1.16	0.79	0.39	inactive
61	BIN3-IT1 (BIN3 intronic transcript 1)	SID134318683	0.37	0.37	0.39	0.36	inactive
62	KRTAP3-2 (keratin associated protein 3-2)	SID134317739	1.98	2.14	1.93	1.87	inactive
63	PRCD (photoreceptor disc component)	SID134328744	0.14	-0.08	0.02	0.47	inactive
64	SMIM17 (small integral membrane protein 17)	SID134325855	-0.75	-0.91	-0.61	-0.73	inactive
65	ADCY8 (adenylate cyclase 8)	SID134311928	-0.1	-0.47	-0.01	0.19	inactive
66	DHH (desert hedgehog signaling molecule)	SID134311276	0.08	0.61	-0.12	-0.25	inactive
67	HPS1 (HPS1 biogenesis of lysosomal organelles complex 3 subunit 1)	SID134315418	-2.39	-2.49	-2.36	-2.32	inactive
68	LOC388334 (retired record)	SID134328762	0.45	0.75	0.25	0.35	inactive
69	DNMT3B (DNA methyltransferase 3 beta)	SID134311770	-1.31	-0.69	-1.84	-1.4	inactive
70	MS4A6E (membrane spanning 4-domains A6E)	SID134321229	-1.51	-1.67	-1.51	-1.36	inactive
71	DNAJB1 (DnaJ heat shock protein family (Hsp40) member B1)	SID134316994	3.29	2.99	3.56	3.32	active
72	KIN (Kin17 DNA and RNA binding protein)	SID134316731	-0.09	0.33	-0.31	-0.27	inactive
73	FGFBP3 (fibroblast growth factor binding protein 3)	SID134322195	-0.18	-0.47	-0.11	0.04	inactive
